PubChem BioAssay AID624099 | ICCB-Longwood – 2012
Test: 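Human genes that papillomavirus E2 requires to repress the HPV18 LCR promoter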 (primary screen). System: human C33A cervical carcinoma cells (HPV-negative) stably expressing BPV1 E2 and an HPV18 LCR luciferase reporter. Knock-down reagent: siRNA pool against human genes, 40 nM. Time to read-out: 72 h. Measurement: 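Per-well luciferase luminescence, z-scored on each plate against the plate mean and SD with control wells left out, then averaged across three replicate plates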. Scale: mean z-score and z-score: higher = stronger reporter signal, weaker E2 silencing. Call rule: 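Hit if mean z-score reaches 2 and two or more of three replicate z-scores also reach 2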.
The deposit covers about 21,000 reagents; shown is a random part of them. Over the whole deposit, 497 (2.4%) got an active call. 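Higher z means weaker E2 silencing; only reporter increases were scored, and knock-downs that hurt cell survival may mask genuine repressor factors.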

The first 5 records, to show the layout:
Target gene	mean z-score	z-score, replicate A	z-score, replicate B	z-score, replicate C	Call
NPC1	-0.34	-0.21	-0.43	-0.37	inactive
DCPH1	0.16	-0.04	0.37	0.14	inactive
TMEM14C	0.04	0.24	-0.12	0	inactive
DUSP8	0.9	0.92	0.98	0.78	inactive
CHST11	-0.09	-0.5	0.17	0.05	inactive

Main list, from the start:
Target gene	mean z-score	z-score, replicate A	z-score, replicate B	z-score, replicate C	Call
NPC1	-0.34	-0.21	-0.43	-0.37	inactive
DCPH1	0.16	-0.04	0.37	0.14	inactive
TMEM14C	0.04	0.24	-0.12	0	inactive
DUSP8	0.9	0.92	0.98	0.78	inactive
CHST11	-0.09	-0.5	0.17	0.05	inactive
FOXI3	0.37	0.45	0	0.64	inactive
SETP14	0.03	0.31	-0.18	-0.03	inactive
STAP2	1.18	1.23	1.21	1.09	inactive
ZFX	1.37	1.04	1.62	1.47	inactive
ZC3H3	1.05	0.8	1.44	0.9	inactive
TIAM2	-0.05	0.1	-0.02	-0.22	inactive
ATG14	-0.02	0.05	0.1	-0.21	inactive
FIGLA	-0.26	-0.01	-0.02	-0.75	inactive
TRAPPC11	0.05	0.27	0.21	-0.34	inactive
KXD1	-0.06	-0.35	0.09	0.07	inactive
CLCN7	-0.66	-0.54	-0.66	-0.78	inactive
IL18BP	0.44	0.18	0.73	0.4	inactive
DNAJC30	0.09	0.03	-0.03	0.28	inactive
UBL3	-0.41	-0.4	-0.25	-0.58	inactive
MRPL24	-0.76	-0.91	-1.04	-0.33	inactive
TSNARE1	-0.12	-0.32	0.3	-0.35	inactive
CEP131	-0.32	-0.22	-0.53	-0.21	inactive
SUFU	0.99	0.79	0.77	1.4	inactive
ARTN	-1.5	-1.45	-1.59	-1.45	inactive
ZNF615	0.06	-0.18	0.38	-0.02	inactive
CKAP2	0.27	-0.08	0.16	0.73	inactive
MARCKS	0.49	1.09	-0.19	0.58	inactive
C5orf63	0.47	0.3	0.57	0.55	inactive
TET3	1.29	1.25	1.49	1.12	inactive
TSBP1-AS1	-0.09	-0.18	-0.02	-0.07	inactive
BRD8	3.18	2.85	3.38	3.32	active
KCNG4	0.85	0.78	0.52	1.24	inactive
RBM4B	0.26	0.37	0.54	-0.13	inactive
LINC01558	-1.06	-0.97	-1.27	-0.95	inactive
RNF215	-0.12	-0.34	0.09	-0.12	inactive
EIF3G	-1.82	-1.57	-1.98	-1.91	inactive
ZNF212	0.57	0.75	0.56	0.39	inactive
ZBTB12	0.94	0.65	1.02	1.15	inactive
HBG2	-1.7	-1.74	-1.68	-1.7	inactive
MARVELD2	-0.63	-0.72	-0.19	-0.97	inactive
UPP2	1.13	1	0.71	1.67	inactive
ALG14	-0.81	-0.89	-1.16	-0.39	inactive
MLPH	-1.35	-1.64	-1.5	-0.9	inactive
P2RY10	-0.81	-0.65	-0.68	-1.1	inactive
LDB3	-0.89	-0.79	-0.9	-0.96	inactive
CPLX1	-1.42	-1.11	-1.24	-1.9	inactive
SLA2	-1.54	-1.63	-1.52	-1.47	inactive
DRAIC	0.9	0.39	0.07	2.25	inactive
NXPH2	-0.7	-0.73	-0.67	-0.7	inactive
RSPRY1	0.26	0.25	0.21	0.33	inactive
DTX1	-0.26	0.04	-0.41	-0.42	inactive
TMC7	-1.48	-1.73	-1.61	-1.09	inactive
LOC402237 (retired record)	-1.08	-1.01	-1.17	-1.05	inactive
TUBD1	-0.96	-1.02	-0.97	-0.9	inactive
ACACB	-0.6	-0.31	-0.56	-0.94	inactive
DNAAF11	0.14	-0.14	0.55	0.01	inactive
CCNC	1.1	1.06	0.99	1.27	inactive
